For this assay, the target named is G3BP-NTF2 (purified NTF2-like domain of human G3BP-1) (human, UniProt Q13283 1-139). The assay can be described thus: ITC. To be noted: both partners purified.

B1: nsP3-25 (peptide spanning residues 449-473 of SFV nsP3) (peptide)
peptide: LTFGDFDEHEVDALASGITFGDFDD
notes: source: dissolved and dialyzed in ITC buffer
For B1, the Kd (as a rule, the concentration at which binding is half-saturated) is 6.7 µM; the dH was -53.56 ± 0.418 kJ/mol; the stoichiometry N (as a rule, the number of molecules, sites or subunits per partner or assembly) was 2.4 ± 0.1.

The record behind these values is PMC4450067, “Viral and Cellular Proteins Containing FGDF Motifs Bind G3BP to Block Stress Granule Formation” (PLoS Pathogens, 2015).
